Data: patent EP1085908B1

Legend:
[1] = target: Recombinant gp120 from HIV-1 MN strain (HIV-1 MN strain) (UniProt P05877); test: SPR (BIAcore), gp120 MN coupled to CM5 chip, KD = kdiss/kass
[2] = target: Recombinant gp120 from HIV-1 MN strain (HIV-1 MN strain) (UniProt P05877); test: SPR (BIAcore), gp120 MN coupled to CM5 chip, immunotoxin in solution
[3] = target: HIV-1 Env expressed on chronically infected 8E5 lymphocyte cells (HIV-1); test: cell-based or functional assay
[4] = target: HIV-1 envelope glycoprotein (Env) expressed on ENV15 cells (HIV-1); test: cell-based or functional assay

“3B3(Fv)-PE38 immunotoxin (from UniProt P11439 278-389; P11439 406-638) (scFv)” showed a Kd [1] of 37 nM, a koff [2] of 0.00703 s⁻¹ and a kon [2] of 192000 M⁻¹ s⁻¹. The IC50, ng/ml (WST-1 cell viability, 5 days) [3] was 2.1 ng/mL, the fold more active than CD4-PE40 (cytotoxicity on 8E5 cells) [3] was 40 fold and the IC50, ng/ml (inhibition of 3H-Leu incorporation into cellular protein, 20 hrs) [4] was 2.5 ng/mL.
